According to PMC7703574 (Journal of medicinal chemistry, 2020):

Test system: CD4-dependent HIV-1ADA
Experiment: Infectivity of […] cells by CD4-dependent HIV-1ADA
Settings: escalating concentrations

CC1(C)CC(NC(=O)C(=O)Nc2ccc(Cl)cc2)CC(C)(C)N1 [NBD-556]
infection of […] cells enabled: significantly enabled the infection
